This is an account of results in patent US20130205416A1.

Common to all, as to assay: cell-based or functional assay
For assay [1], the target named is H1N1 viruses (haemagglutinin of H1N1 influenza virus, strains not given).
Assay [2] addresses H3N2 viruses (haemagglutinin of H3N2 influenza virus, strains not given).
In assay [3] the target is haemagglutinin of A/England/195/09 (H1N1), on PR8 recombinant virus (Influenza A virus A/England/195/09 (H1N1)).
Assay [4] addresses haemagglutinin of A/Victoria/3/75 (H3N2), on PR8 recombinant virus (Influenza A virus A/Victoria/3/75 (H3N2)), P03435.
The target of assay [5] is haemagglutinin of influenza virus A/WSN/33 (H1N1) (Influenza A virus A/WSN/33 (H1N1)), P03454.
In assay [6] the target is haemagglutinin of A/Vietnam/1194/04 (H5N1), on PR8 recombinant virus (Influenza A virus A/Vietnam/1194/04 (H5N1)).

As to WLVFFVIFYFFR (modifications not checked) [FP1-D, D-isomer of FP1], the inhibition of virus infection in vitro in assay [1] and in assay [2] was 100 nM in each case.
With RRKKWLVFFVIYFFR (modifications not checked) [FP4 peptide], the knockdown in plaque reduction assay at 10 µg of peptide in assay [3] was determined as 90%; in assay [4], 97%; in assay [5], 100%.
For the molecule WLVFFVIAYFAR (modifications not checked) [FP2 peptide (…)], the knockdown in plaque reduction assay at 10 µg of peptide in assay [3] turned out to be 66%; in assay [4], 75%; in assay [6], 65%.
